Data: PubChem BioAssay (NCI)
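Method: 48-hour compound exposure of cells in 96-well plates, five concentrations, linear interpolation of endpoints. At the GI50, growth is halved. The concentration for full growth arrest is given as TGI.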

Key:
Assay in all cases: growth of human tumour cells (NCI), 48 h
HS 578T breast = system: HS 578T breast
NCI-H322M lung = system: NCI-H322M lung
SN12C renal = system: SN12C renal

## CC1=CC2O[C@@H]3C[C@H]4OC(=O)/C=C\C=C\C56OCCC7(OC7C(=O)OCC2(CC1)[C@]4(C)[C@]31CO1)C5OC(O)C6O (stereo partly specified)
HS 578T breast
  GI50: 1.69 nM
  TGI: 3460 nM
NCI-H322M lung
  GI50: 5.47 nM
  TGI: 316 nM
SN12C renal
  GI50: 3.01 nM
  TGI: 3420 nM
